Data reported in patent publication US6488953B2, “Oral transmucosal delivery” (Controlled Therapeutics (Scotland) Ltd., priority 1998, dated 2002).

Assay: Loading of model peptides into polymers of different ESU
Assay type: physicochemical
Set-up: key: +: Good uptake; −: no uptake

Substance	uptake into polymer (polymer E.S.U. 280 %)	uptake into polymer (polymer E.S.U. 490 %)	uptake into polymer (polymer E.S.U. 1120 %)	uptake into polymer (polymer E.S.U. 733 %)
Bovine Serum Albumin: model peptide, molecular wt 60,000	−	−	+	
Lysozyme	−		+	+
Melanostatin	+	+	+	+
Myoglobin	−	−	+	+
